In patent US20230072955A1 (EXUMA BIOTECH, published 2023):

Biological target: T1, recombinant human HER2 antigen (human)
T1 construct: also called human HER2 protein
Test: pH range ELISA, IgG at 100 ng/mL on plate-coated recombinant human HER2; pH of 50% binding activity (pH 6.0 = 100%)

B1: VH-A106E/VL-A032D (antibody, V domains shown)
VH: [about 120 residues with changes skipped]
VL: DIQMTQSPSSLSASVGDRVTITCRASQDVNTDVAWYQQKPGKAPKLLIYSASFLYSGVPSRFSGSRSGTDFTLTISSLQPEDFATYYCQQHYTTPPTFGQGTKVEIK
notes: also called VH-A1063/VL-A032D; A106E/A032D
  pH Inflection Point Calculation: 6.61 pH
